Key:
Anthrax LF = Anthrax LF (Bacillus anthracis, UniProt P15917); assay type: biochemical; conditions: read-out: Anthrax LF IC50
BoNT/A LC = BoNT/A LC (Clostridium botulinum, UniProt P0DPI0); conditions: cited from earlier work

Sequences of proteins named here, by UniProt entry; tags and fusion partners are left off. Residues count along the entry.
UniProt P15917, 34-809 limits assumed: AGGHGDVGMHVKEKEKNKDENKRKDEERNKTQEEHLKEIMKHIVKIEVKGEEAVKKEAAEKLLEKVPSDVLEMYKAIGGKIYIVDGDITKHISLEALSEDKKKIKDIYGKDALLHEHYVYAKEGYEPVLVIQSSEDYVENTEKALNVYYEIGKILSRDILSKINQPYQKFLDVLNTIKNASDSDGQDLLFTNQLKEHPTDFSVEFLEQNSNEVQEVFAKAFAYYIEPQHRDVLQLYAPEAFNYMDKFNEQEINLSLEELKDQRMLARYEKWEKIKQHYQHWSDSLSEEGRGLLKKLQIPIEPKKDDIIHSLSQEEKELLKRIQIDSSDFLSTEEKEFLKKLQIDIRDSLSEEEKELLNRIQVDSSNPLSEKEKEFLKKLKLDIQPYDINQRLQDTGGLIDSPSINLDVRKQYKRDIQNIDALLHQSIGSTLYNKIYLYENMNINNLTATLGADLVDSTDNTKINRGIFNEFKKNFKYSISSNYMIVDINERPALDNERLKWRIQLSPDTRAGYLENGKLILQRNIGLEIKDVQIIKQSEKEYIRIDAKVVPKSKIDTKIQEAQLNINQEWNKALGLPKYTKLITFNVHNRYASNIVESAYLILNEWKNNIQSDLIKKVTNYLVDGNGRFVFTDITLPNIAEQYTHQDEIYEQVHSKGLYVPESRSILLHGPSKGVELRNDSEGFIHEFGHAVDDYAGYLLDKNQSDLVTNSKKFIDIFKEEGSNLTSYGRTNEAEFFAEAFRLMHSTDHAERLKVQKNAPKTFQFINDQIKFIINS
UniProt P0DPI0, 2-448 limits assumed: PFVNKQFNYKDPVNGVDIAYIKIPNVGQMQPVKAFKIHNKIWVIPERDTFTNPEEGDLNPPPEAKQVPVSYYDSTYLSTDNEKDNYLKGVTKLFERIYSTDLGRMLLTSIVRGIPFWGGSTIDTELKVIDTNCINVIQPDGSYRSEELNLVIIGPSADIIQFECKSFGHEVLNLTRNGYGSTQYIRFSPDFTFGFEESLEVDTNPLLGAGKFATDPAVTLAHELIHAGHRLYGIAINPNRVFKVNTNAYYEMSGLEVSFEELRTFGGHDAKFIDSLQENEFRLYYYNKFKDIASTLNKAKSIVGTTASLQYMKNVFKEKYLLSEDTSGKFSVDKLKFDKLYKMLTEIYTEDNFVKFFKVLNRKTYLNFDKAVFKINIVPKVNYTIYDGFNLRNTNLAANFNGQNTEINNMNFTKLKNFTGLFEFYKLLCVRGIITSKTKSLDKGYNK

| Substance | IC50 (Anthrax LF) [µM] | activity in vivo (BoNT/A LC) |
| --- | --- | --- |
| 2-(1-Cyano-2-phenylvinyl)benzimidazole [Compound 8a] | > 100 | – |
| 2,4-dichlorocinnamic hydroxamic acid | – | very minimal activity |

— article PMC3230330 (Bioorganic & medicinal chemistry, 2011)
